Measured values from several laboratories, pooled; numbers as filed in NIAID ChemDB.

Shared fields: tests in culture; organism: Mycobacterium tuberculosis

ECn: concentration that inhibits the pathogen or its effect by n%.

compound,cells,read by,tested at,conditions,strain or isolate,endpoint,result
CC(=O)N1C=Cc2c(c(C)c3c([nH]c4ccccc43)c2C)C1,,resazurin,6.25 µg/mL,,H37Rv,inhibition,57%
Cn1c(O)c(N=NC(=S)Nc2ccc(Br)cc2)c2cc(OC(F)(F)F)ccc21,,broth dilution / resazurin,,,H37Rv,EC50,0.612 µg/mL
CCOc1ccccc1CNCCNCCc1cc(OC)ccc1OC,,,,,,MIC,50 µM
O=C(N/N=C/c1cccc(C(F)(F)F)c1)c1ccncc1,,,,,Rifampicin-resistant,MBC,0.05 µg/mL
COc1c(N2CCNC(C)C2)c(F)cc2c(=O)c(C(=O)O)cn(C3CC3)c12,,,,,Strain 32,MIC,0.125 µg/mL
O=C(Oc1ccc(Br)cc1C(=O)Nc1ccc(C(F)(F)F)cc1)c1cnccn1,,,,14 d,multidrug resistant 9449/2006,MIC,0.5 µM
Cc1ccc(C(=O)CN2CCN(c3cc4c(cc3F)c(=O)c(C(=O)O)cn4C3CC3)CC2)cc1,VERO,,,,H37Rv,EC50,<6.25 µg/mL
O=C(NNCc1ccccc1F)c1ccncc1,,,,,H37Rv,MIC,0.2 µg/mL
CCOC(=O)c1ccc2c(c1)nc(-c1ccc(N3CCOCC3)cc1)n2CCN1CCCC1=O,,resazurin / fluorescence,,,H37Rv,EC90,>100 µM
CN(C)c1nc(N)c2nc3c(nc2n1)CCCC3,,BACTEC,12.5 µg/mL,,H37Rv,inhibition,14%
COc1ccc(OC)c(CCNCCNC23CC4CC(CC2C4)C3)c1,,,,,,MIC,25 µM
O=C1OC(c2ccccc2)=N/C1=C/C=C/c1ccco1,,BACTEC,,,H37Rv,MIC bound,>12.5 µg/mL
NNC(=O)c1ccncc1,,,,,PR1370,MIC,0.08 µg/mL
O=C(N/N=C/c1cccc(F)c1)c1ccncc1,,,,,H37Rv (kanamycin-resistant),MIC,≤2 µg/mL
Cc1ccc(NC(=S)N=Nc2c(O)n(C)c3ccc(C)cc23)cc1,,broth dilution / resazurin,,,H37Rv,EC90,>100 µg/mL
Cc1[nH][nH]c(=O)c1N=Nc1ccc(C(=O)N/N=C/c2ccc(F)cc2)cc1,,,,,H37Rv,MIC,>12.5 µg/mL
C/C(=N\NC(=O)c1ccncc1)c1ccc(F)cc1,,,,,Thiacetazone-resistant,MIC,>1.6 µg/mL
Cc1[nH]n(CCO)c(=O)c1N=Nc1ccc(-c2n[nH]c(=O)n2-c2ccccc2)cc1,,,,,H37Rv,EC50,>12.5 µg/mL
CCC12OC(COc3ccccc3)CN1CCN2c1ccccc1,,BACTEC,,,H37Rv,MIC,≥12.5 µg/mL
CC(=O)Oc1ccccc1C(=O)Nc1ncc([N+](=O)[O-])s1,,visual reading,,,Haarlem spoligotype 168,MIC,28 µg/mL
C=CCNC(=S)N=Nc1c(O)n(C)c2ccc(C)cc12,,broth dilution / resazurin,,,H37Rv,EC50,>100 µg/mL
CN(C)CN1C(=O)S/C(=C2\C(=O)N(CN(C)C)c3ccccc32)C1=O,,BACTEC,12.5 µg/mL,,H37Rv,inhibition,2%
CCCCC(CC)CN1CN(CC(CC)CCCC)CC(C)(NCCNCC(O)CO)C1,,,,,,MIC,25 µM
C[C@]12CCC3C[C@]1(C[C@@]3(C)O)[C@H](O)C[C@@H]1[C@@]3(C)CCC[C@]12OC3=O,,BACTEC,,,H37Rv,MIC,≥12.5 µg/mL
CCOC(=O)c1ccc2c(c1)nc(-c1ccc(O)cc1O)n2CCN1CCCC1=O,,resazurin / fluorescence,,,H37Rv,MIC,>100 µM
O=C(N/N=C/Cc1ccccc1)c1ccc(F)cc1,,,6.25 µg/mL,,H37Rv,inhibition,4%
Cc1onc(-c2c(F)cccc2F)c1C(=O)N1CCN(c2c(F)cc3c(=O)c(C(=O)O)cn4c3c2OCC4C)CC1,,agar,,,,MIC99,10.99 µM
C[C@H]1COc2c(N3CCN(C)CC3)c(F)cc3c(=O)c(C(=O)O)cn1c23,,,,,8R,MIC,0.5 µg/mL
O=S(=O)(SC1=NCCN1)c1cccc2ccccc12,,resazurin,,,H37Rv,MIC bound,>6.25 µg/mL
Cc1[nH][nH]c(=O)c1N=Nc1ccc(-c2n[nH]c(=S)o2)cc1,,,12.5 µg/mL,,H37Rv,inhibition,0%
O=C(N/N=C/c1ccc(O)cc1)c1ccc(F)cc1,,,,,H37Rv,EC50,>6.25 µg/mL
O=C(Oc1ccc(Cl)cc1C(=O)Nc1ccc(C(F)(F)F)cc1)c1cnccn1,,,,14 d,multidrug resistant Praha 1,MIC,0.125 µM
CC(=O)NC[C@H]1CN(c2ccc(N3CCOCC3)c(F)c2)C(=O)O1,,,,,Strain 40,MIC,0.25 µg/mL
Fc1ccccc1CCNCCNCC12CC3CC(CC(C3)C1)C2,,,,,,MIC,50 µM
O=C(O)C1C2CCC(O2)C1C(=O)Nc1nc2cc3ccccc3cc2s1,,resazurin,,,H37Rv,MIC bound,>6.25 µg/mL
COc1ccc(CNCCNCCc2ccccc2F)c(OC)c1,,,,,,MIC,25 µM
COc1ccc(OC)c(-n2nnc3ccccc3c2=O)c1,,BACTEC,12.5 µg/mL,,H37Rv,inhibition,0%
CCOC(=O)c1ccc2c(c1)nc(-c1ccc(N(C)C)cc1)n2CCN1CCCOC1,,resazurin / fluorescence,,,H37Rv,MIC,>100 µM
OCCCCCNCCNCc1ccccc1Sc1ccccc1CO,,,,,,MIC,12.5 µM
Oc1cc(O)c2c(c1)O[C@H](c1ccc(O)c(O)c1)[C@H](O)[C@H]2c1c(O)cc(O)c2c1O[C@H](c1ccc(O)c(O)c1)[C@H](O)C2,,BACTEC,,,H37Rv,MIC bound,>12.5 µg/mL
NC(=O)c1cnccn1,,,,14 d,H37Rv 331/88,MIC,250–1000 µM
OC[C@H]1O[C@@H](c2ccc(O)cc2O)[C@H](O)[C@@H]1O,,BACTEC,12.5 µg/mL,,H37Rv,inhibition,3%
COc1ccc(OC)c(CCNCCNCc2ccc(OC)c(OC)c2)c1,,,,,,MIC,6.25 µM
C[C@@H]1C[C@@H]2OC(=O)[C@]3(C)[C@H]2[C@@H](OC3(C)O)[C@]2(C)C(=O)C=C[C@@H]12,,BACTEC,,,H37Rv,MIC,≥128 µg/mL
COc1ccc(CCc2cc(OC)c3ccccc3n2)cc1OC,,,,,MT4,MIC,77 µg/mL
CCOC(=O)c1ccc2nc(-c3ccc(Br)cc3)[nH]c2c1,,resazurin / fluorescence,,,H37Rv,EC90,>100 µM
O=C(CN1CCN(c2cc3c(cc2F)c(=O)c(C(=O)O)cn3C2CC2)CC1)c1ccc(Br)cc1,VERO,,6.25 µg/mL,,H37Rv,inhibition,101%
Cc1c(C(=O)C/C(=N\NC(=O)CC#N)C(N)=O)[n+](=O)c2ccccc2n1[O-],,BACTEC,,,H37Rv,MIC,≥12.5 µg/mL
COc1ccc(CCNCCNCC23CC4CC(CC(C4)C2)C3)cc1,,,,,,MIC,25 µM
CCn1cc(C(=O)O)c(=O)c2cc(F)c(N3CCN(C/C(=N/O)c4ccc(C)cc4)CC3)cc21,,,,,H37Rv,MIC,>6.25 µg/mL
O=C(Oc1ccc(Cl)cc1C(=O)Nc1ccc(Cl)c(Cl)c1)c1cnccn1,,,,14 d,multidrug resistant Praha 1,MIC,0.25 µM
CC1CN(c2c(F)cc3c(=O)c(C(=O)O)cn4c3c2OC[C@@H]4C)CC(C)O1,,agar,,,MDR-TB,MIC99,8.3 µM
Cc1ccc2c(c1)c(N=NC(=S)Nc1cccc(Br)c1)c(O)n2C,,broth dilution / resazurin,,,H37Rv,EC90,>100 µg/mL
CCn1c(-c2ccc(N=Nc3c(C)[nH]n(CCO)c3=O)cc2)n[nH]c1=S,,,,,H37Rv,MIC,>12.5 µg/mL
CCn1cc(C(=O)O)c(=O)c2cc(F)c(N3CCN(CC(=O)c4ccc(F)cc4)CC3)nc21,,,6.25 µg/mL,,H37Rv,inhibition,44%
O=C(Oc1cc(Cl)ccc1C(=O)Nc1ccc(C(F)(F)F)cc1)c1cnccn1,,,,14 d,H37Rv 331/88,MIC,1 µM
Cc1cc(Cl)ccc1NC(=O)CC/C(CC(=O)C(C)C)=N\NC(=O)C[n+]1ccccc1.[Cl-],,BACTEC,12.5 µg/mL,,H37Rv,inhibition,9%
CO[C@H]1/C=C/O[C@@]2(C)Oc3c(C)c(O)c4c(O)c(c(/C=N/N5CCN(C6CCCC6)CC5)c(O)c4c3C2=O)NC(=O)/C(C)=C\C=C\[C@H](C)[C@H](O)[C@@H](C)[C@@H](O)[C@@H](C)[C@H](OC(C)=O)[C@@H]1C,,,,,L407,MIC,0.1 µg/mL
COc1ccc2cc1-c1cc(ccc1O)C[C@H]1c3cc4c(cc3CCN1C)Oc1c(OC)cc3c(c1O4)[C@H](C2)N(C)CC3,,resazurin,,,H37Rv,MIC,6.2 µg/mL
NNC(=O)c1ccncc1,,,,,2S,MIC,0.1 µg/mL
COc1cc2nc(N3CCN(C(=O)c4ccco4)CC3)nc(N)c2cc1OC,,BACTEC,12.5 µg/mL,,H37Rv,inhibition,53%
O=C(Oc1ccc(Cl)cc1)c1cnccn1,,,,21 d,331/88,MIC,250 µM
CCOc1cc(/C=N/NC(=O)c2ccc(F)cc2)ccc1O,,,,,H37Rv,EC50,>6.25 µg/mL
CC(NCCNCC(c1ccccc1)c1ccccc1)c1cccc2ccccc12,,,,,,MIC,6.25 µM
CCCC1C2=C(C(=O)OC2=O)C2C(CC)CC3=C(C(=O)OC3=O)C12,,BACTEC,,,H37Rv,MIC bound,>12.8 µg/mL
C[C@H](NCCNCc1ccc(C(F)(F)F)cc1)C1CCCCC1,,,,,,MIC,50 µM
Oc1[nH]c2ccc(OC(F)(F)F)cc2c1N=NC(=S)Nc1ccc(Cl)cc1,,broth dilution / resazurin,,,H37Rv,EC90,1.521 µg/mL
CCCCC/C=C/C/C=C/CCCCCCCC1=NC(CC)(CO)CO1,,BACTEC,12.5 µg/mL,,H37Rv,inhibition,-29%
CC(CNCCc1ccccc1F)NCCC1=CCCCC1,,,,,,MIC,50 µM
C[C@H]1COc2c(N3CCN(C(=O)C4COc5ccccc5O4)CC3)c(F)cc3c(=O)c(C(=O)O)cn1c23,,agar,,,,MIC99,12.27 µM
C=CCn1c(-c2ccc(N=Nc3c(C)[nH][nH]c3=O)cc2)n[nH]c1=S,,,12.5 µg/mL,,H37Rv,inhibition,0%
CC1(C)[C@H]2CC[C@@H](CNCCNCCC3=CCCCC3)[C@@H]1C2,,,,,,MIC,25 µM
O=C(NNCc1cccc(C(F)(F)F)c1)c1ccncc1,,,,,Rifampicin-resistant,MIC,0.39 µg/mL
NCC[C@H](O)C(=O)N[C@@H]1C[C@H](N)[C@@H](O[C@H]2O[C@H](CN)[C@@H](O)[C@H](O)[C@H]2O)[C@H](O)[C@H]1O[C@H]1O[C@H](CO)[C@@H](O)[C@H](N)[C@H]1O,,resazurin / fluorescence,,,H37Rv,EC90,>100 µM
O=C(c1ccc([N+](=O)[O-])cc1)c1cnc2nc(-c3ccccc3)c(-c3ccccc3)nn12,,BACTEC,,,H37Rv,MIC bound,>12.5 µg/mL
C[C@H]1COc2c(N3CCN(C(c4ccccc4)c4ccc(Cl)cc4)CC3)c(F)cc3c(=O)c(C(=O)O)cn1c23,,agar,,,,MIC,5.71 µM
CC(C)CC(C)NCCNCCc1ccccc1,,,,,,MIC,50 µM
CCOc1ccc(N2CC(=O)N3CCCC(c4ccccc4)N3C(=O)C2)cc1,,BACTEC,12.5 µg/mL,,H37Rv,inhibition,33%
CC1(C)[C@@H]2CC[C@@]1(C)[C@@H](NCCNC1Cc3ccccc3C1)C2,,,,,,MIC,50 µM
COc1ccc(CCC2CCc3ccccc3N2C)cc1OC,,,,,MT1,MIC,50 µg/mL
CCOC(=O)c1ccc2c(c1)nc(-c1ccc([N+](=O)[O-])cc1)n2CCN1CCCOC1,,resazurin / fluorescence,,,H37Rv,EC90,>100 µM
O=C(N/N=C/c1ccc([N+](=O)[O-])cc1[N+](=O)[O-])c1ccc(F)cc1,,,,,H37Rv,MIC,>6.25 µg/mL
c1ccc(NCCNCCNC2CCCCCCC2)cc1,,,,,,MIC,50 µM
O=C(NNCc1ccccc1)c1ccncc1,,,,,Thiacetazone-resistant,MIC,>6.25 µg/mL
COc1ccc2cc1-c1cc(ccc1O)C[C@H]1c3cc4c(cc3CCN1C)Oc1c(OC)cc3c(c1O4)[C@@H](C2)N(C)CC3,,resazurin,,,H37Rv,MIC,3.1 µg/mL
CCOC(=O)c1ccc2c(c1)nc(-c1ccc(Br)cc1)n2CCN1CCCOC1,,resazurin / fluorescence,,,H37Rv,MIC,>100 µM
CC(C)OC(=O)N1CC(C)N(C(=O)OC(C)C)CC1C,,BACTEC,12.5 µg/mL,,H37Rv,inhibition,2%
Oc1[nH]c2ccc(OC(F)(F)F)cc2c1N=NC(=S)Nc1ccccc1,,broth dilution / resazurin,,,H37Rv,EC90,>100 µg/mL

A second listing of 9 rows from above:

compound,cells,read by,tested at,conditions,strain or isolate,endpoint,result
CCCC1C2=C(C(=O)OC2=O)C2C(CC)CC3=C(C(=O)OC3=O)C12,,BACTEC,,,H37Rv,MIC bound,>12.8 µg/mL
COc1ccc(CCNCCNCC23CC4CC(CC(C4)C2)C3)cc1,,,,,,MIC,25 µM
NNC(=O)c1ccncc1,,,,,PR1370,MIC,0.08 µg/mL
O=C(N/N=C/c1ccc(O)cc1)c1ccc(F)cc1,,,,,H37Rv,EC50,>6.25 µg/mL
Oc1[nH]c2ccc(OC(F)(F)F)cc2c1N=NC(=S)Nc1ccccc1,,broth dilution / resazurin,,,H37Rv,EC90,>100 µg/mL
NNC(=O)c1ccncc1,,,,,2S,MIC,0.1 µg/mL
CC(NCCNCC(c1ccccc1)c1ccccc1)c1cccc2ccccc12,,,,,,MIC,6.25 µM
Cc1ccc2c(c1)c(N=NC(=S)Nc1cccc(Br)c1)c(O)n2C,,broth dilution / resazurin,,,H37Rv,EC90,>100 µg/mL
CC1(C)[C@H]2CC[C@@H](CNCCNCCC3=CCCCC3)[C@@H]1C2,,,,,,MIC,25 µM

a–b is a range or a potency band. An empty or dashed field is not shown. Percent inhibition refers to the dose given; in toxicity tests it is the harm to the cells. A number after MIC or MFC names an inhibition level or a share of isolates. Lines come from different laboratories, so protocols vary. MIC bound: limit read from a one-dose screen.